Tests used:
[1] = target: middle domain of human poly(A)-binding protein-interacting protein 1 (Paip1M, residues 78-296) (human) (UniProt Q9H074); assay: BLI
[2] = target: middle domain of human Paip1 (Paip1M, residues 78-296) (human) (UniProt Q9H074); assay: BLI

Substance	Kd [1] [µM]	Kd [2] [µM]	koff [2] [s⁻¹]	kon [2] [M⁻¹ s⁻¹]
SARS-CoV-2 SUD-core (nsp3 residues 413-676, SUD-N and SUD-M) (domain or fragment)	18	–	–	–
SARS-CoV-2 SUD-core-CC (nsp3 413-676 with L516C and Y647C) (domain or fragment)	–	7.2	0.011	1500

Reference: paper PMC10326071 (2023)
